A mixed list of measured activities; the numbers were collected in NIAID ChemDB.

Common to all: growth or infection tests; species: Candida albicans

A number after MIC or MFC names an inhibition level or a share of isolates. Neighbouring rows are from separate reports. An empty or dashed field is not shown. ECn is the concentration giving n% inhibition of infection, replication or growth.

SMILES	conditions	method	strain	endpoint	value
O=Cc1cc(-c2cccc(Br)c2)no1	-	-	-	MIC	50 µg/mL
Cc1ccc(-c2c3c(N)c4c(nc3nc3c2c(C)nn3-c2ccccc2)CCC4)cc1	-	broth dilution / absorbance	CCC 129	MIC100	125 µg/mL
c1ccc(-c2ccc(C(c3cccc4ccccc34)n3ccnc3)cc2)cc1	-	-	23 strains	Mean MIC	108 µg/mL
C[C@@H](N1CCN(c2ccc(OCC(F)(F)C(F)F)cc2)C1=O)C(O)(Cn1cncn1)c1ccc(F)cc1F	-	-	TIMM1756	MIC	<0.016 µg/mL
O=C(Nc1ccc(Cl)cc1)c1ncccc1S	-	-	ATCC 44859	MIC	125 µM
NS(=O)(=O)c1ccc(C2C=C(c3ccc(Cl)cc3)C(Br)C2c2ccccc2)cc1	-	-	ATCC 2091	MIC	50 µg/mL
CC[C@@H]([C@H](C)O)n1ncn(-c2ccc(N3CCN(c4ccc(OC[C@@H]5CO[C@@](Cn6cncn6)(c6ccc(F)cc6F)C5)cc4)CC3)cc2)c1=O	-	-	30 isolates	Geometric mean MIC	0.11 µg/mL
COc1ccc(C(c2cccc3ccccc23)n2ccnc2)cc1	-	-	23 strains	Mean MIC	49 µg/mL
CCCCCCCCCCCCCCCC(=O)NC1CC(O)C(O)NC(=O)C2C(O)C(C)CN2C(=O)C(C(O)CC(N)=O)NC(=O)C(C(O)C(O)c2ccc(O)c(OS(=O)(=O)O)c2)NC(=O)C2CC(O)CN2C(=O)C(C(C)O)NC1=O	-	-	FP578	MIC50	0.008 µg/mL
c1ccc2c(C(c3ccc(-n4cccc4)cc3)n3ccnc3)cccc2c1	-	-	23 strains	MIC90	4 µg/mL
O=C(Nc1ccc(C(F)(F)F)cc1)c1ccccc1O	-	-	ATCC 44859	MIC	>125 µM
CCC(C)n1ncn(-c2ccc(N3CCN(c4ccc(OC[C@H]5CO[C@](Cn6cncn6)(c6ccc(Cl)cc6Cl)O5)cc4)CC3)cc2)c1=O	-	-	KB	MIC	>4 µg/mL
O=Cc1cc(-c2ccc(Cl)cc2Cl)no1	-	-	-	MIC	50 µg/mL
N=C(N)c1ccc2oc(/C=C/c3cc4cc(C(=N)N)ccc4s3)cc2c1	-	-	-	MIC	>60 µg/mL
C[C@@H](n1ncn(-c2ccc(OCC(F)(F)C(F)F)cc2)c1=O)[C@](O)(Cn1cncn1)c1ccc(F)cc1F	-	-	TA	MIC	0.008 µg/mL
O=Cc1cc(-c2cccc(Cl)c2)no1	-	-	-	MIC	50 µg/mL
O=C(Nc1ccc(F)cc1)c1ccccc1O	-	-	ATCC 44859	MIC	125 µM
CC1=NN(c2nnc3c(n2)Nc2ccccc2N3)C(=O)C1=C(C)C	-	-	ATCC 2091	MIC	200 µg/mL
Fc1ccc(C(c2ccc3ccccc3c2)n2ccnc2)cc1	-	-	23 strains	Mean MIC	10.36 µg/mL
C[C@@H](SC1COC(/C=C/C=C/c2ccc(C#N)cc2F)OC1)[C@](O)(Cn1cncn1)c1ccc(F)cc1F	-	-	CAL-0148	MIC	0.016 µg/mL
Fc1ccc(C(c2cccc3ccccc23)n2ccnc2)cc1	-	-	23 strains	MIC50	8 µg/mL
N=C(N)c1ccc2[nH]c(/C=C/c3cc4cc(C(=N)N)ccc4o3)cc2c1	-	-	-	MIC	30 µg/mL
O=C(Nc1ccc(C(F)(F)F)cc1)c1ncccc1O	-	-	ATCC 44859	MIC	125 µM
C[C@@H](c1ncncc1F)[C@](O)(Cn1cncn1)c1ccc(F)cc1F	48 h	-	Isolate HR-Micro	MIC50	0.02 µg/mL
O=C(Cc1nnc2n1-c1nc3ccccc3nc1NN2)NNC(=S)Nc1ccccc1	-	-	ATCC 2091	MIC	25 µg/mL
COc1ccc(-c2c3c(N)c4c(nc3nc3c2c(C)nn3-c2ccccc2)CCC4)cc1	-	broth dilution / absorbance	ATCC 10231	MIC50	250 µg/mL
N=C(N)c1ccc(-c2ccc(-c3ccc(C(=N)N)cc3)o2)cc1	-	-	-	MIC	>60 µg/mL
COc1ccc(C(c2ccc3ccccc3c2)n2ccnc2)cc1	-	-	23 strains	MIC50	16 µg/mL
O=C(Nc1cccc([N+](=O)[O-])c1)c1ccccc1O	-	-	ATCC 44859	MIC	>125 µM
C[C@@H](N1CCN(c2ccc(OC(F)(F)C(F)F)cc2)C1=O)C(O)(Cn1cncn1)c1ccccc1F	-	-	TA	MIC	<0.016 µg/mL
O=C(Nc1ccc(Cl)cc1)c1ncccc1O	-	-	ATCC 44859	MIC	62.5 µM
c1csc(C(c2cccc3ccccc23)n2ccnc2)c1	-	-	23 strains	Mean MIC	8.3 µg/mL
CC1(C)CC(=O)c2cc(C3CC(c4ccc(Br)cc4)=NN3)[nH]c2C1	-	-	ATCC 2091	MIC	200 µg/mL
Cc1ccc(-c2c3c(N)c4c(nc3nc3c2c(C)nn3-c2ccccc2)CCCCC4)cc1	-	broth dilution / absorbance	CCC 129	MIC50	31.2 µg/mL
CC1(C)C/C(=N\NC(=O)c2ccccc2)c2cc(/C=N/Nc3nnc4c(n3)Nc3ccccc3N4)[nH]c2C1	-	-	ATCC 2091	MIC	200 µg/mL
C[C@@H](N1CCN(c2ccc(OC(F)(F)C(F)F)cc2)C1=O)C(O)(Cn1cncn1)c1ccc(F)cc1F	-	-	TIMM1756	MIC	<0.016 µg/mL
NS(=O)(=O)c1ccc(C2C=C(c3ccc(Br)cc3)CC2c2ccccc2)cc1	-	-	ATCC 2091	MIC	200 µg/mL
Cc1onc(-c2cccc(Br)c2)c1C=O	-	-	-	EC50	27.07 µg/mL
N=C(N)c1ccc2nc(-c3ccc(-c4nc5ccc(C(=N)N)cc5[nH]4)[nH]3)[nH]c2c1	-	-	Isolate 1866	MFC	12.5 µg/mL
Cc1ccc(-c2c3c(N)c4c(nc3nc3c2c(C)nn3-c2ccccc2)CCCC4)cc1	-	broth dilution / absorbance	CCC 130	MIC100	31.2 µg/mL
CC1(C)CC(=O)c2cc(C3=CC(c4ccc(Br)cc4)=CC3c3nnc4c(n3)Nc3ccccc3C4)[nH]c2C1	-	-	ATCC 2091	MIC	200 µg/mL
Cc1onc(-c2ccc(Cl)cc2)c1C=O	-	-	-	MIC	50 µg/mL
N=C(N)c1ccc2c(c1)[nH]c1c3cc(C(=N)N)ccc3sc21	-	-	-	MIC	>60 µg/mL
CCCCCCCCCCCCCCCC(=O)N[C@H]1C[C@@H](O)[C@@H](O)NC(=O)[C@@H]2[C@@H](O)[C@@H](C)CN2C(=O)[C@H]([C@@H](C)O)NC(=O)[C@H]([C@H](O)[C@@H](O)c2ccc(O)cc2)NC(=O)[C@@H]2C[C@@H](O)CN2C(=O)[C@H]([C@@H](C)O)NC1=O	-	-	FP629	MIC50	0.015 µg/mL

For reference, 5 entries again:

SMILES,conditions,method,strain,endpoint,value
CC1(C)CC(=O)c2cc(C3=CC(c4ccc(Br)cc4)=CC3c3nnc4c(n3)Nc3ccccc3C4)[nH]c2C1,-,-,ATCC 2091,MIC,200 µg/mL
c1ccc2c(C(c3ccc(-n4cccc4)cc3)n3ccnc3)cccc2c1,-,-,23 strains,MIC90,4 µg/mL
O=C(Nc1ccc(Cl)cc1)c1ncccc1S,-,-,ATCC 44859,MIC,125 µM
N=C(N)c1ccc2c(c1)[nH]c1c3cc(C(=N)N)ccc3sc21,-,-,-,MIC,>60 µg/mL
c1ccc(-c2ccc(C(c3cccc4ccccc34)n3ccnc3)cc2)cc1,-,-,23 strains,Mean MIC,108 µg/mL